Measured values from several laboratories, pooled; numbers as filed in NIAID ChemDB.

Common to all: tests in culture; agent: Aspergillus fumigatus

ECn is the concentration giving n% inhibition of infection, replication or growth.

SMILES,measure,method,strain or isolate,value
COC(=O)N[C@H](C(=O)NN(CCC[C@@]1(Cc2ccccc2)C(=O)N(C2c3ccccc3C[C@H]2O)C[C@H]1O)Cc1ccc(-c2cccnc2)cc1)C(C)(C)C,MIC,agar,RCMB 002003,15.6 µg/mL
CCC(C)n1ncn(-c2ccc(N3CCN(c4ccc(OC[C@H]5CO[C@](Cn6cncn6)(c6ccc(Cl)cc6Cl)O5)cc4)CC3)cc2)c1=O,MIC90,,150 clinical isolates,0.25 µg/mL
COc1cc(/C=C2\SC(=S)NC2=O)cc(OC)c1OCC(O)(Cn1cncn1)c1ccc(F)cc1F,MIC50,broth dilution,ATCC 46645,16 µg/mL
C[C@H]1[C@H](O)[C@@H](C)/C=C/C=C/C=C/C=C/C=C/C=C/C=C/[C@H](O[C@@H]2O[C@H](C)[C@@H](O)[C@H](N)[C@@H]2O)C[C@@H]2O[C@](O)(C[C@@H](O)C[C@@H](O)CC[C@H](O)[C@@H](O)C[C@@H](O)CC(=O)O[C@H]1C)C[C@H](O)[C@H]2C(=O)O,MIC90,,,1 µg/mL
COC(=O)N[C@H](C(=O)NN(CC[C@@]1(Cc2ccccc2)C(=O)N(C2c3ccccc3C[C@H]2O)C[C@H]1O)Cc1ccc(-c2cccnc2)cc1)C(C)(C)C,MIC,agar,RCMB 002003,7.8 µg/mL
CCCCC(c1cn(Cc2ccc(Cl)cc2)c2ccc(Br)cc12)n1ccnc1,MIC80,,AF980003,>100 µg/mL
COc1c(O)c(CC=C(C)C)c2oc3c(O)cccc3c(=O)c2c1O,MIC80,,,>250 µg/mL
Cc1ccc2c(c1)nc1c(CN)c(-c3c(-c4ccc(Cl)cc4)[nH]c4ccccc34)c(CN)c(N)n12,MIC,broth dilution,MTCC 3008,>1000 µg/mL
COc1cc(-c2n[nH]c(COc3nc(C(F)(F)F)nc4ccccc34)n2)cc(OC)c1OC,MIC100,,MTCC 343,12.5 µg/mL
NCCNC(=O)C1=Nc2ccc(NC(=O)C3=Nc4ccc(C(=O)Nc5ccc6[nH]c(C(=O)NCCN)cc6c5)cc4C3)cc2C1,MIC,,,>25 µg/mL
Cc1ccc2c(c1)nc1c(CN)c(-c3c(-c4ccc(F)cc4)[nH]c4ccccc34)c(CN)c(N)n12,MIC,broth dilution,MTCC 3008,>1000 µg/mL
COC(=O)N[C@H](C(=O)NN(CC[C@]1(Cc2ccccc2)C(=O)N(C2c3ccccc3C[C@H]2O)C[C@@H]1O)Cc1ccc(Br)cc1)C(C)(C)C,MIC,agar,RCMB 002003,7.8 µg/mL
C[n+]1c2cccc(O)c2cc2sc3ccccc3c21,EC50,resazurin,ATCC 90906,>20 µg/mL
C/C=C/CN=C(N)NCCCCCCCN1CCCCCCCCN=C(N)NC1=O,MIC50,,,36 µM
C[C@H]1[C@H](O)[C@@H](C)/C=C/C=C/C=C/C=C/C=C/C=C/C=C/[C@H](O[C@@H]2O[C@H](C)[C@@H](O)[C@H](N)[C@@H]2O)C[C@@H]2O[C@](O)(C[C@@H](O)C[C@@H](O)CC[C@H](O)[C@@H](O)C[C@@H](O)CC(=O)O[C@H]1C)C[C@H](O)[C@H]2C(=O)O,MIC,,KM 8001,32 µg/mL
COC(=O)N[C@H](C(=O)NN(CC[C@]1(Cc2ccccc2)C(=O)N(C2c3ccccc3C[C@H]2O)C[C@H]1O)Cc1ccc(Br)cc1)C(C)(C)C,MIC,agar,RCMB 002003,15.6 µg/mL
Cc1ccc(C(C)C)cc1O,MIC,,F05,0.16 µg/mL
C/C=C/C=C(/C)C(=O)O[C@H]1[C@H](O)[C@H](OCC23C4C=C(C(C)C)C2(C(=O)O)C(C=O)(C4)[C@@H]2CC[C@@H](C)[C@H]23)O[C@H](C)[C@H]1OC,MIC,,48238,>125 µg/mL
O=C1S/C(=C\c2ccccn2)C(=O)N1CC(O)(Cn1nccn1)c1ccc(F)cc1F,MIC80,,,>100 µg/mL
CC(C)(O)C1Cc2ccc3c(=O)c4ccccc4oc3c2O1,MIC80,,,62 µg/mL
O=Cc1ccc(OCC(O)(Cn2cncn2)c2ccc(F)cc2F)cc1,MIC50,broth dilution,ATCC 46645,128 µg/mL
COC(=O)N[C@H](C(=O)NN(CC[C@@]1(Cc2ccccc2)C(=O)N(C2c3ccccc3C[C@H]2O)C[C@@H]1O)Cc1ccc(Br)cc1)C(C)(C)C,MIC,agar,RCMB 002003,15.6 µg/mL
COc1cc(C2=C(c3ccc(F)cc3)COC2=O)ccc1OCC(O)(Cn1cncn1)c1ccc(F)cc1F,MIC50,broth dilution,ATCC 46645,8 µg/mL
O=C1S/C(=C\c2ccc(Cl)cc2Cl)C(=O)N1CC(O)(Cn1nccn1)c1ccc(F)cc1F,MIC80,,,>100 µg/mL
CCCCC(c1cn(Cc2ccc(Cl)cc2)c2ccccc12)n1ccnc1,MIC80,,AF980003,>100 µg/mL
COc1cc(C2=C(c3ccc(F)cc3F)COC2=O)ccc1OCC(O)(Cn1cncn1)c1ccc(F)cc1F,MIC50,broth dilution,ATCC 46645,8 µg/mL
NCc1c(-c2c(-c3ccc(F)cc3)[nH]c3ccccc23)c(CN)c2nc3ccccc3n2c1N,MIC,broth dilution,MTCC 3008,1000 µg/mL
COc1ccc(C2=C(c3ccc(OCC(O)(Cn4cncn4)c4ccc(F)cc4F)cc3)C(=O)OC2)cc1,MIC50,broth dilution,ATCC 46645,8 µg/mL
NCc1c(-c2c(-c3ccccc3)[nH]c3ccccc23)c(CN)c2nc3ccccc3n2c1N,MIC,broth dilution,MTCC 3008,>1000 µg/mL
CCCCCCCC/C=C\CCCCCCCC(=O)N[C@H](C(=O)N1C[C@H](C)C[C@H]1C(=O)N[C@H](C(=O)N[C@@H](CCO)C(=O)N[C@@H](C)C=O)C(C)C)[C@@H](C)O,MIC,broth dilution / visual reading,MF5668,>32 µg/mL
CC(=O)Oc1c(Cl)cccc1C(=O)Nc1cccc(Cl)c1,MIC,,231,15.63 µg/mL
Cc1ccc(-c2n[nH]c(COc3nc(C)nc4ccccc34)n2)cc1,MIC100,,MTCC 343,50 µg/mL
CC(=O)Oc1c(Cl)cccc1C(=O)Nc1ccc(C(F)(F)F)cc1,MIC,,231,3.91 µg/mL
CC1(C)Oc2c(ccc3c(=O)c4ccccc4oc23)C[C@@]1(C)O,MIC80,,,>250 µg/mL
Fc1ccc(Cn2cc(Cn3ccnc3)c3ccccc32)cc1,MIC80,,AF980003,13 µg/mL
O=C1S/C(=C\c2ccccc2)C(=O)N1CC(O)(Cn1nccn1)c1ccc(F)cc1F,MIC80,,,>100 µg/mL
Fc1ccc(-c2n[nH]c(COc3nc(C(F)(F)F)nc4ccccc34)n2)cc1,MIC100,,MTCC 25,25 µg/mL
Cc1ccc(/C=C2\SC(=O)N(CC(O)(Cn3nccn3)c3ccc(F)cc3F)C2=O)c(C)c1,MIC80,,,>100 µg/mL
O=C1c2c(O)ccc(O)c2C(=O)c2c(NCCNCCO)ccc(NCCNCCO)c21,MIC,,NCPF 2010,>100 µM
NCc1c(-c2c(-c3ccc(Br)cc3)[nH]c3ccccc23)c(CN)c2nc3ccccc3n2c1N,MIC,broth dilution,MTCC 3008,>1000 µg/mL
CCN1CCC(O)(/C=C/c2ccc(Cl)cc2)C(C(=O)/C=C/c2ccc(Cl)cc2)C1,MIC90,,28 strains (itraconazole-resistant),5.84 µg/mL
CC(=O)Oc1cc(Cl)ccc1C(=O)Nc1ccc(Br)cc1,MIC,,231,7.81 µg/mL
OC(Cn1cncn1)(Cn1cncn1)c1ccc(F)cc1F,MIC80,,,>100 µg/mL
COC(=O)N[C@H](C(=O)NN(CCC[C@@]1(Cc2ccccc2)C(=O)N(C2c3ccccc3C[C@H]2O)C[C@H]1O)Cc1ccc(-c2ccccn2)cc1)C(C)(C)C,MIC,agar,RCMB 002003,7.8 µg/mL
COC(=O)[C@H]1[C@@H]2C[C@@H](O[C@@H]3O[C@H](C)[C@@H](O)[C@H](N)[C@@H]3O)/C=C/C=C/C=C/C=C/C=C/C=C/C=C/[C@H](C)[C@@H](O)[C@H](C)[C@H](C)OC(=O)C[C@H](O)C[C@H](O)[C@@H](O)CC[C@H](O)C[C@H](O)C[C@](O)(C[C@@H]1O)O2,MIC,,NCPF 2010,0.48 µM
FC(F)(F)c1nc(OCc2nc(-c3ccc(Cl)cc3)n[nH]2)c2ccccc2n1,MIC100,,MTCC 343,25 µg/mL
NCc1c(-c2c(-c3ccc(Cl)cc3)[nH]c3ccccc23)c(CN)c2nc3ccccc3n2c1N,MIC,broth dilution,MTCC 3008,>1000 µg/mL
C[C@@H](c1ncncc1F)[C@](O)(Cn1cncn1)c1ccc(F)cc1F,MIC90,,,0.5 µg/mL
Fc1ccccc1Cn1cc(Cn2ccnc2)c2cc(Br)ccc21,MIC80,,AF980003,>100 µg/mL
COc1c(O)ccc2c(=O)c3ccccc3oc12,MIC80,,,62 µg/mL
COC(=O)N[C@H](C(=O)NN(CC[C@@]1(Cc2ccccc2)C(=O)N(C2c3ccccc3C[C@H]2O)C[C@H]1O)Cc1ccc(-c2ccccn2)cc1)C(C)(C)C,MIC,agar,RCMB 002003,15.6 µg/mL
Oc1ccc(-c2n[nH]c(COc3ncnc4ccccc34)n2)cc1,MIC100,,MTCC 282,12.5 µg/mL

The first 8 rows once more:

COC(=O)N[C@H](C(=O)NN(CCC[C@@]1(Cc2ccccc2)C(=O)N(C2c3ccccc3C[C@H]2O)C[C@H]1O)Cc1ccc(-c2cccnc2)cc1)C(C)(C)C ; measure: MIC ; method: agar ; strain or isolate: RCMB 002003 ; value: 15.6 µg/mL
CCC(C)n1ncn(-c2ccc(N3CCN(c4ccc(OC[C@H]5CO[C@](Cn6cncn6)(c6ccc(Cl)cc6Cl)O5)cc4)CC3)cc2)c1=O ; measure: MIC90 ; strain or isolate: 150 clinical isolates ; value: 0.25 µg/mL
COc1cc(/C=C2\SC(=S)NC2=O)cc(OC)c1OCC(O)(Cn1cncn1)c1ccc(F)cc1F ; measure: MIC50 ; method: broth dilution ; strain or isolate: ATCC 46645 ; value: 16 µg/mL
C[C@H]1[C@H](O)[C@@H](C)/C=C/C=C/C=C/C=C/C=C/C=C/C=C/[C@H](O[C@@H]2O[C@H](C)[C@@H](O)[C@H](N)[C@@H]2O)C[C@@H]2O[C@](O)(C[C@@H](O)C[C@@H](O)CC[C@H](O)[C@@H](O)C[C@@H](O)CC(=O)O[C@H]1C)C[C@H](O)[C@H]2C(=O)O ; measure: MIC90 ; value: 1 µg/mL
COC(=O)N[C@H](C(=O)NN(CC[C@@]1(Cc2ccccc2)C(=O)N(C2c3ccccc3C[C@H]2O)C[C@H]1O)Cc1ccc(-c2cccnc2)cc1)C(C)(C)C ; measure: MIC ; method: agar ; strain or isolate: RCMB 002003 ; value: 7.8 µg/mL
CCCCC(c1cn(Cc2ccc(Cl)cc2)c2ccc(Br)cc12)n1ccnc1 ; measure: MIC80 ; strain or isolate: AF980003 ; value: >100 µg/mL
COc1c(O)c(CC=C(C)C)c2oc3c(O)cccc3c(=O)c2c1O ; measure: MIC80 ; value: >250 µg/mL
Cc1ccc2c(c1)nc1c(CN)c(-c3c(-c4ccc(Cl)cc4)[nH]c4ccccc34)c(CN)c(N)n12 ; measure: MIC ; method: broth dilution ; strain or isolate: MTCC 3008 ; value: >1000 µg/mL

Neighbouring rows are from separate reports. MIC50, MIC90 and the like: level of inhibition, or share of isolates inhibited. Blank or dashed fields: not listed here.